Measured values from several laboratories, pooled; numbers as filed in NIAID ChemDB.

All rows: tests in culture; organism: Mycobacterium tuberculosis

An empty or dashed field is not shown. MIC bound: limit read from a one-dose screen. Neighbouring rows are from separate reports. MIC50, MIC90 and the like: level of inhibition, or share of isolates inhibited. Two numbers with a dash give a range or band. ECn: concentration that inhibits the pathogen or its effect by n%. Inhibition is in % at the dose shown (toxicity tests: loss of growth or viability).

SMILES,method,tested at,setting,changes,strain,measure,result
Cc1ccc(NC(=S)c2cccc(Br)c2)cc1,,,,,H37Rv,MIC,61.9 µM
O=C1C(=Cc2ccccc2)N=C(c2ccccc2)N1n1c(-c2ccccc2)nc2ccccc2c1=O,BACTEC,,,,H37Rv,MIC bound,≤12.5 µg/mL
C[C@@H]1CN(c2c(F)c(N)c3c(=O)c(C(=O)O)cn(C4CC4)c3c2F)C[C@H](C)N1,,,,,,MBC,0.5 µg/mL
Cc1nc2c(cc1C(=O)NN)c(=O)n(C)c(=O)n2C,resazurin,6.25 µg/mL,,,H37Rv,inhibition,3%
COc1cc2occc2c2oc(=O)ccc12,resazurin,,,,H37Ra,EC50,74.6 µg/mL
N=c1cc2c(cn1-c1ccccc1Cl)C(=O)c1ccccc1C2=O,luminescence,,,Lux,H37Rv,MIC,3 µM
CCc1[nH]c2ccccc2c1N1C(=O)CC2(CCN(Cc3ccccc3)CC2)CC1=O,resazurin,6.25 µg/mL,,,H37Rv,inhibition,55%
O=C(N/N=C/c1ccc(C2C3CC4CC(C3)CC2C4)cc1)c1ccncc1,luminescence,,,,H37Rv,MIC,23 µg/mL
O=[N+]([O-])c1ccc(Oc2cnc3nc(-c4ccccc4F)[nH]c3c2)cc1,resazurin / absorbance,,,,H37Rv,MIC80,2.3 µM
C=C[C@@H](O)C#CC#C[C@@H](O)/C=C\CCCCCCC,resazurin,,,,H37Ra,EC50,1.6 µg/mL
O=C1CCCC2C(O1)C1CCCC(=O)OC21,BACTEC,12.5 µg/mL,,,H37Rv,inhibition,8%
Cc1ccc2c(c1)c1c3n2CCN(C=O)C3CCC1,,,,,H37Rv,MIC,8 µg/mL
O=C(N/N=C/C12CC3CC(C1)CC(/C=N/NC(=O)c1ccncc1)(C3)C2)c1ccncc1,luminescence,,,,H37Rv,MIC,0.04 µg/mL
COc1cc2ccc(=O)oc2c2ccoc12,resazurin,,,,H37Ra,EC50,86.6 µg/mL
CNn1cc(C(=O)O)c(=O)c2cc(F)c(N3CCN(C)CC3)cc21,,,,,,MIC90,>4 µg/mL
NNC(=O)c1ccncc1,resazurin,,,DG167-resistant,DRM167 32x11,MIC,0.19 µM
COc1c2c(c(OC)c3ccccc13)CN(c1ccc(Br)cc1)C(=N)C2,luminescence,,,Lux,H37Rv,MIC,10.13 µM
COc1c(N2CCNC(C)C2)c(F)cc2c(=O)c(C(=O)O)cn(C3CC3)c12,,,,,5 isolates drug-resistant,MIC90,0.031 µg/mL
NNC(=O)c1ccncc1,luminescence,,,Lux,H37Rv,MIC,0.13 µM
COCCn1c2nc(=O)n(-c3ccccc3)c(=O)c-2nc2ccccc21,BACTEC,,,,H37Rv,MIC bound,>12.5 µg/mL
C(CON/N=C/c1ccncc1)=C1C2CC3CC(C2)CC1C3,luminescence,,,,H37Rv,MIC,>100 µg/mL
c1ccc(Sc2nnc(N3CCN(c4nc(N5CCN(c6ccccc6)CC5)c5ccccc5n4)CC3)o2)cc1,agar / visual reading,50 µg/mL,,,H37Rv,inhibition,91%
COc1c(OCC=C(C)C)c2occc2c2oc(=O)ccc12,resazurin,,,,H37Ra,MIC90,50 µg/mL
COc1c2c(c(OC)c3ccccc13)CN(c1ccc([N+](=O)[O-])cc1)C(=N)C2,luminescence,,,Lux,H37Rv,MIC,15.75 µM
CCCCN1CCN(CCCC)C1=O,BACTEC,,,,H37Rv,MIC bound,>12.5 µg/mL
COc1ccc(NC(=S)c2ccc(OC)cc2)cc1,,,,,H37Rv,MIC,61.9 µM
Cc1ccccc1NNC(=O)N1CCN(c2nc(N3CCN(c4ccccc4)CC3)c3ccccc3n2)CC1,BACTEC / fluorescence,6.25 µg/mL,,,H37Rv,inhibition,0%
COc1ccc(C(=S)Nc2ccc(Br)cc2)cc1,,,,,H37Rv,MIC,2000 µM
Cc1cccc(-c2nc3ncc(Oc4ccc([N+](=O)[O-])cc4)cc3[nH]2)c1,resazurin / absorbance,,,,H37Rv,MIC80,1.4 µM
NC(N)=NS(=O)(=O)c1ccc(N2C(=O)CC3(CCCC3)C2=O)cc1,BACTEC,12.5 µg/mL,,,H37Rv,inhibition,12%
CC(C)COC(=O)c1ccc(NC(=O)CCC(=O)O)cc1O,,,,,H37Rv,MIC,>20 µg/mL
CCOc1ccc(N=Cc2c3c(O)c4c(O)c(C)c5c(c4c2O)C(=O)[C@@](C)(O/C=C/[C@H](OC)[C@@H](C)[C@@H](OC(C)=O)[C@H](C)[C@H](O)[C@H](C)[C@@H](O)[C@@H](C)/C=C/C=C(/C)C(=O)N3)O5)cc1,,,,,H37Rv,MIC,>50 µg/mL
Cc1cc(O)c2c(c1)C(=O)C=CC2=O,,,,,H37Rv,MIC,0.5 µg/mL
COc1ccc(C2c3c(-c4ccccc4)nn(-c4ccccc4)c3Oc3ncn(N)c(=N)c32)cc1OC,resazurin,,,,H37Rv,MIC bound,>6.25 µg/mL
Cc1ccc2[nH]c3c(C)c4cc[n+](C)cc4c(C)c3c2c1,resazurin / fluorescence,,,MDR,Jal 2287,MIC,12.5 µM
O=C(NNc1ccccc1)N1CCN(c2nc(N3CCN(c4ccccc4)CC3)c3ccccc3n2)CC1,agar / visual reading,100 µg/mL,,,H37Rv,inhibition,90%
CCCCOC(=O)c1ccc(NC(=O)/C=C\C(=O)O)cc1O,,,,,H37Rv,MIC,20 µg/mL
Cc1ccc2c(c1)c1c3n2CCN(C(=O)/C=C/C(=O)O)C3CCC1,,,,,H37Rv,MIC,16 µg/mL
Clc1ccc(-n2ccnc2)cc1Cl,resazurin,,,,H37Ra,MIC,>12.5 µg/mL
O=C(NNc1ccccc1[N+](=O)[O-])N1CCN(c2nc(N3CCN(c4ccccc4)CC3)c3ccccc3n2)CC1,agar / visual reading,12.5 µg/mL,,,H37Rv,inhibition,93%
Cc1cccc(NCC(=O)NN)c1C,BACTEC,,,,H37Rv,MIC,≥12.5 µg/mL
O=[N+]([O-])c1ccccc1Sc1nnc(N2CCN(c3nc(N4CCN(c5ccccc5)CC4)c4ccccc4n3)CC2)o1,agar / visual reading,,,,H37Rv,MIC,12.5 µg/mL
Nc1ccc(S(=O)(=O)c2ccc(N)cc2)cc1,,16 µg/mL,,,,inhibition,0%
Cc1ccc(/C(=C/Sc2ccc(Cl)cc2)n2cc(Sc3ccc(Cl)cc3)c(-c3ccc(C)cc3)n2)cc1,agar,,,,H37Rv,MIC,12.5 µg/mL
Cc1cc(=O)c2c(o1)-c1c(cc(O)c(O)c1C(=O)O)OC2,BACTEC,,,,H37Rv,MIC,≥12.8 µg/mL
Cc1cccc(OC(=O)c2ccc(NC(=O)c3ccccc3C(=O)O)cc2O)c1,,,,,H37Rv,MIC,0.25 µg/mL
N#Cc1nc2ccccc2nc1Cl,,,,,H37Rv,EC50,<12.5 µg/mL
N#CCCN(c1ccc(/C=C2\N=C(c3ccc(Cl)cc3)OC2=O)cc1)S(=O)(=O)c1ccccc1,BACTEC,,,,H37Rv,MIC bound,>12.5 µg/mL
COc1ccccc1NNC(=O)N1CCN(c2nc(N3CCN(c4ccccc4)CC3)c3ccccc3n2)CC1,agar / visual reading,25 µg/mL,,,H37Rv,inhibition,95%
O=C(/C=C/C(=O)Nc1ccc(F)cc1F)Nc1ccc(F)cc1F,resazurin,,,,H37Rv,MIC bound,>6.25 µg/mL
O=[N+]([O-])c1ccc(Oc2cnc3nc(-c4ccccc4Br)[nH]c3c2)cc1,resazurin / absorbance,,,,H37Rv,MIC80,2.1 µM
Cc1ccc2c(c1)c1c3n2CCN(CC(O)CNCCCN(C)C)C3CCC1,,,,,H37Rv,MIC,64 µg/mL
O=C(N/N=C/C12CC3CC(C1)CC(c1ccccc1)(C3)C2)c1ccncc1,luminescence,,,,H37Rv,MIC,0.06 µg/mL
COc1ccc(NC(=S)c2ccc(C)cc2)cc1,,,,,H37Rv,MIC,250 µM
CCn1cc(C(=O)O)c(=O)c2cc(F)c(-n3cccc3)cc21,,,,,,MIC90,>4 µg/mL
CO[C@H]1/C=C/O[C@@]2(C)Oc3c(C)c(O)c4c(=O)c(c5oc6cc(N7CCN(CC(C)C)CC7)cc(=O)c6nc5c4c3=C2O)NC(=O)/C(C)=C\C=C\[C@H](C)[C@H](O)[C@@H](C)[C@@H](O)[C@@H](C)[C@H](OC(C)=O)[C@@H]1C,,,,,H37Rv,MBC,0.3–0.6 µg/mL
NNC(=O)c1ccncc1,resazurin / fluorescence,,,MDR,Jal 2261,MIC,>100 µg/mL
Cc1ccc2c(c1)c1c3n2CCN(CC(O)CNC2CCCCC2)C3CCC1,,,,,H37Rv,MIC,4 µg/mL
CN(C)c1ccc(/C=N/NC(=O)CCCCC(=O)N/N=C/c2ccc(N(C)C)cc2)cc1,BACTEC,,,,H37Rv,MIC bound,>12.5 µg/mL
CC(=O)c1ccccc1NNC(=O)N1CCN(c2nc(N3CCN(c4ccccc4)CC3)c3ccccc3n2)CC1,agar / visual reading,,,,H37Rv,MIC,6.25 µg/mL
N#Cc1nc2cc(Cl)ccc2nc1Cl,,,,,H37Rv,EC50,<12.5 µg/mL
CC(=O)CN1CCn2c3c(c4cc(C)ccc42)CCCC31,,,,,H37Rv,MIC,64 µg/mL
c1ccc2c(c1)Sc1ccccc1N2CCCNC1=NCCO1,BACTEC,,,,H37Rv,MIC bound,>12.5 µg/mL
C=C(C)[C@@H]1CC[C@]2(CO)CC[C@]3(C)[C@H](CC[C@@H]4[C@@]5(C)CC[C@H](O)C(C)(C)[C@@H]5CC[C@]43C)[C@@H]12,,,,,H37Rv,MIC,>128 µg/mL
Cc1c2ccncc2c(C)c2c1[nH]c1ccc(Br)cc12,resazurin / fluorescence,,,XDR,MYC 431,MIC,>100 µM
CCOC(=O)n1[nH][nH]c2c(c(=O)n(C)c(=O)n2C)n1C(=O)OCC,BACTEC,128 µg/mL,,,H37Rv,inhibition,93%
O=C(Nc1cccc(Cl)c1)c1ccc([N+](=O)[O-])o1,,,,,H37Ra,MIC,0.8 µg/mL
Cc1ccc(Sc2nnc(N3CCN(c4nc(N5CCN(c6ccccc6)CC5)c5ccccc5n4)CC3)o2)cc1,agar / visual reading,6.25 µg/mL,,,H37Rv,inhibition,99%
NNc1n[nH]c(=O)n1N,BACTEC,,,,H37Rv,MIC bound,>12.5 µg/mL
O=C(N/N=C/CC12CC3CC(CC(C3)C1)C2)c1ccncc1,luminescence,,,,H37Rv,MIC,0.05 µg/mL
O=[N+]([O-])c1ccc(Oc2cnc3nc(-c4cccc(Br)c4)[nH]c3c2)cc1,resazurin / absorbance,,,,H37Rv,MIC80,0.7 µM
COc1ccc(C(=S)Nc2ccc(C)cc2)cc1,,,,,H37Rv,MIC,250 µM
Cc1ccc(-n2cc3c(cc2=N)C(=O)c2ccccc2C3=O)c(Br)c1,luminescence,,,Lux,H37Rv,MIC,0.59 µM
CCn1cc(C(=O)O)c(=O)c2cc(F)c(N3CCNC(C)C3)c(F)c21,,,,,,MBC,2 µg/mL
Cc1ccc2c(c1)c1c3n2CCN(CC(O)Cc2ccccc2)C3CCC1,,,,,H37Rv,MIC,4 µg/mL
C[C@@H](O)[C@H]1C(=O)N2C(C(=O)O)=C(S[C@@H]3CN[C@H](C(=O)N(C)C)C3)C[C@]12C,,,,,,MIC,0.47 µM
O=C1CN(c2cccc(Cl)c2)C(=O)CN1NCNN1CC(=O)N(c2cccc(Cl)c2)CC1=O,resazurin,,,,H37Rv,MIC bound,>6.25 µg/mL
CO[C@H]1/C=C/O[C@@]2(C)Oc3c(C)c(O)c4c(O)c(c(/C=N/N5CCN(c6cccc7ccccc67)CC5)c(O)c4c3C2=O)NC(=O)/C(C)=C\C=C\[C@H](C)[C@H](O)[C@@H](C)[C@@H](O)[C@@H](C)[C@H](OC(C)=O)[C@@H]1C,,,,,H37Rv,MIC,0.07–3.12 µg/mL
O=C(N/N=C/C12CC3CC(C1)CC(C1CCCC1)(C3)C2)c1ccncc1,luminescence,,,,H37Rv,MIC,0.06 µg/mL
O=C(NNc1ccccc1)C(O)C(O)C(O)C(O)C(O)C(O)C(O)CO,BACTEC,12.5 µg/mL,,,H37Rv,inhibition,6%
COC(=O)c1ccc(NC(=O)CCC(=O)O)cc1O,,,,,H37Rv,MIC,>20 µg/mL
COc1ccc(/C=N/NC(=O)c2cnccn2)cc1,BACTEC,,,,H37Rv,MIC,≥12.5 µg/mL
CCNCC1CCN(c2c(F)cc3c(=O)c(C(=O)O)cn(CC)c3c2F)C1,,,,,,MIC90,>4 µg/mL
Cc1ccc(CCNC(=O)c2c3nc4c(C(=O)NCCc5ccc(C)cc5)ccc(Br)c4oc-3c(Br)c(=O)c2N)cc1,BACTEC,,,,H37Rv,MIC bound,>12.5 µg/mL
NNC(=O)CNc1ccc2ccccc2c1,,100 µg/mL,"21 d, 8% human serum",,H37Rv,inhibition,100%

The first 5 rows once more:

Cc1ccc(NC(=S)c2cccc(Br)c2)cc1 ; strain: H37Rv ; measure: MIC ; result: 61.9 µM
O=C1C(=Cc2ccccc2)N=C(c2ccccc2)N1n1c(-c2ccccc2)nc2ccccc2c1=O ; method: BACTEC ; strain: H37Rv ; measure: MIC bound ; result: ≤12.5 µg/mL
C[C@@H]1CN(c2c(F)c(N)c3c(=O)c(C(=O)O)cn(C4CC4)c3c2F)C[C@H](C)N1 ; measure: MBC ; result: 0.5 µg/mL
Cc1nc2c(cc1C(=O)NN)c(=O)n(C)c(=O)n2C ; method: resazurin ; tested at: 6.25 µg/mL ; strain: H37Rv ; measure: inhibition ; result: 3%
COc1cc2occc2c2oc(=O)ccc12 ; method: resazurin ; strain: H37Ra ; measure: EC50 ; result: 74.6 µg/mL